Columns and labels:
[1] = tested on: HRV-14; experiment: Antirhinoviral H1-HeLa cell culture assay (XTT cell protection, EC50), HRV-14; format: cell-based, human rhinovirus (HRV) serotype-14 in H1-HeLa cells
Summary of the method: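 H1-HeLa cells were infected with HRV-14 at m.o.i. 0.13, or mock-infected, and incubated with compound for two days. Cell protection was read by XTT/PMS formazan absorbance at 450/650 nm to give EC50. CC50 came from mock-infected cells, and TI = CC50/EC50.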

[2] = tested on: Coxsackievirus type A-21 (CAV-21); experiment: Anticoxsackieviral cell culture assay (XTT, EC50), CAV-21; format: cell-based, coxsackievirus A-21 in H1-HeLa cells
Description: (§1) Anticoxsackieviral Cell Culture Assay:
(§2) Coxsackievirus types A-21 (CAV-21) and B3 (CVB3) were purchased from American Type Culture Collection (ATCC, Rockville, Md.). Virus stocks were propagated and antiviral assays were performed in H1-HeLa cells (ATCC). Cells were grown in minimal essential medium with 10% fetal bovine serum (Life Technologies, Gaithersburg, Md.). The ability of the compounds of this invention to protect cells against either CAV-21 or CVB3 infection was measured by the XTT dye reduction method. This method is described in Weislow et al., J. Natl. Cancer Inst. (1989), vol. 81, 577-586. H1-HeLa cells were infected with CAV-21 or CVB3 at a multiplicity of infection (m.o.i.) of 0.025 or 0.075, respectively, or mock-infected with medium only. H1-HeLa cells were plated at 4×10^4 cells per well in a 96-well plate and incubated with appropriate concentrations of the test compound. One day (CVB3) or two days (CAV-21) later, XTT/PMS was added to test plates and the amount of formazan produced was quantified spectrophotometrically at 450/650 nm. The EC50 was calculated as the concentration of compound that increased the formazan production in compound-treated, virus-infected cells to 50% of that produced by compound-free, uninfected cells. The 50% cytotoxic dose (CC50) was calculated as the concentration of compound that decreased formazan production in compound-treated, uninfected cells to 50% of that produced in compound-free, uninfected cells. The therapeutic index (TI) was calculated by dividing the CC50 by the EC50.

[3] = tested on: Coxsackievirus type B3 (CVB3); experiment: Anticoxsackieviral cell culture assay (XTT, EC50), CVB3; format: cell-based, coxsackievirus B3 in H1-HeLa cells
Description: as §1, §2

[4] = tested on: Echovirus type 11 (ECHO 11); experiment: Anti-echoviral cell culture assay (XTT, EC50), ECHO 11; format: cell-based, echovirus 11 in MRC-5 cells
Description: (§3) Anti-Echoviral and Anti-Enteroviral Cell Culture Assays
(§4) Echovirus type 11 (ECHO 11) was purchased from ATCC (Rockville, Md.). Virus stocks were propagated and antiviral assays were performed in MRC-5 cells (ATCC). Cells were grown in minimal essential medium with 10% fetal bovine serum (Life Technologies, Gaithersburg, Md.). The ability of the compounds of this invention to protect cells against ECHO 11 infection was measured by the XTT dye reduction method (Weislow et al., J. Natl. Cancer Inst. (1989), vol. 81, 577-586). MRC-5 cells were infected with ECHO 11 at an m.o.i. of 0.003 or 0.004, respectively, or mock-infected with medium only. Infected or uninfected cells were added at 1×10^4 cells per well and incubated with appropriate concentrations of compound. Four days later, XTT/PMS was added to test plates, and the amount of formazan produced was quantified spectrophotometrically at 450/650 nm. The EC50 was calculated as the concentration of compound that increased the formazan production in compound-treated, virus-infected cells to 50% of that produced by compound-free, uninfected cells. The 50% cytotoxic dose (CC50) was calculated as the concentration of compound that decreased formazan production in compound-treated, uninfected cells to 50% of that produced in compound-free, uninfected cells. The therapeutic index (TI) was calculated by dividing the CC50 by the EC50. Activity of the compounds against enterovirus type 70 (EV 70) may be measured by the same assay as described above in this section. Enterovirus type 70 (EV 70) may be obtained from the American Type Culture Collection ATCC (Rockville, Md.).

[5] = tested on: enterovirus type 70 (EV 70); experiment: Anti-enteroviral cell culture assay (XTT, EC50), EV 70; format: cell-based, enterovirus 70 in MRC-5 cells; conditions: ENT-70
Description: as §3, §4

[6] = tested on: strains of human rhinovirus (HRV); experiment: Antirhinoviral H1-HeLa cell culture assay (XTT cell protection, EC50), other HRV strains; format: cell-based, human rhinovirus in H1-HeLa cells
Summary of the method: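 H1-HeLa cells infected, or mock-infected, were incubated with compounds for two days. Cell protection measured by XTT/PMS formazan absorbance at 450/650 nm; TI taken as CC50 divided by EC50.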

[7] = tested on: coxsackievirus B2 (CVB2); experiment: Anticoxsackieviral cell culture assay (EC50), CVB2; format: cell-based
[8] = tested on: coxsackievirus B5 (CVB5); experiment: Anticoxsackieviral cell culture assay (EC50), CVB5; format: cell-based
[9] = tested on: echovirus 6 (ECHO-6); experiment: Anti-echoviral cell culture assay (EC50), ECHO-6; format: cell-based
[10] = tested on: echovirus 9 (ECHO-9); experiment: Anti-echoviral cell culture assay (EC50), ECHO-9; format: cell-based
[11] = tested on: coxsackievirus B2 (CVB2); experiment: Antiviral cell culture assay (EC50), coxsackievirus B2; format: cell-based
[12] = tested on: coxsackievirus B5 (CVB5); experiment: Antiviral cell culture assay (EC50), coxsackievirus B5; format: cell-based
[13] = tested on: echovirus 9 (ECHO-9); experiment: Antiviral cell culture assay (EC50), echovirus 9; format: cell-based; conditions: ECHO9

| SMILES | TI [1] | TI [2] | TI [3] | TI ([4]; ECHO-11) | TI [5] | TI ([6]; HRV-2) | TI ([6]; HRV-3) | TI ([6]; HRV-9) | TI ([6]; HRV-16) | TI ([6]; HRV-25) | TI ([6]; HRV-39) | TI ([6]; HRV-1A) | TI ([6]; HRV-10) | TI ([6]; HRV-11) | TI ([6]; HRV-13) | TI ([6]; HRV-19) | TI ([6]; HRV-23) | TI ([6]; HRV-78) | TI ([6]; HRV-Hanks) | TI [11] | other results |
| --- | --- | --- | --- | --- | --- | --- | --- | --- | --- | --- | --- | --- | --- | --- | --- | --- | --- | --- | --- | --- | --- |
| CCOC(=O)/C=C/[C@H](CCC(N)=O)NC(=O)[C@H](Cc1ccccc1)n1cccc(NC(=O)OCc2ccccc2)c1=O [Compound 1, trans-(2′S,4S)-4-[2′-(3″-Benzyloxycarbonylamino-2″-oxo-2″H-pyridin-1″-yl)-3′-phenylpropionylamino]-6-carbamoylhex-2-enoic Acid Ethyl Ester] | 1518 | >7 | >19 | >63 | >833 | – | – | – | – | – | – | – | – | – | – | – | – | – | – | – | – |
| CCOC(=O)/C=C\[C@H](CCC(N)=O)NC(=O)[C@H](Cc1ccccc1)n1cccc(NC(=O)c2cc(C)on2)c1=O [Compound 5, trans-(2′S,4S)-6-Carbamoyl-4-(2′-{3″-[(5′″-methylisoxazole-3′″-carbonyl)amino]-2″-oxo-2″H-pyridin-1″-yl}-3′-phenylpropionylamino)hex-2-enoic Acid Ethyl Ester] | >625 | >7 | >17 | >185 | >556 | – | – | – | – | – | – | – | – | – | – | – | – | – | – | – | – |
| CCOC(=O)/C=C/[C@H](CCC(N)=O)NC(=O)[C@H](Cc1ccccc1)n1cccc(NC(=O)C2CCCC2)c1=O [Compound 6, trans-(2′S,4S)-6-Carbamoyl-4-{2′-[3″-cyclopentanecarbonylamino-2″-oxo-2″H-pyridin-1″-yl]-3′-phenylpropionylamino}hex-2-enoic Acid Ethyl Ester] | >294 | >2 | >4 | >29 | >164 | – | – | – | – | – | – | – | – | – | – | – | – | – | – | – | – |
| C#CC[C@@H](C(=O)N[C@H](/C=C/C(=O)OC(C)(C)C)C[C@@H]1CCNC1=O)n1cccc(NC(=O)c2cc(C)on2)c1=O [Compound 41, trans-(2′S,3′″″S,4S)-4-[2′-(3″-{[1′″-(5″″-Methylisoxazol-3″″-yl)methanoyl]amino}-2′″-oxo-2′″H-pyridin-1′″-yl)pent-4″-ynoylamino]-5-(2′″″-oxopyrrolidin-3′″″-yl)pent-2-enoic Acid tert-Butyl Ester] | >161 | >16 | >85 | >53 | – | >64 | >185 | >17 | >24 | >12 | >22 | – | – | – | – | – | – | – | – | – | TI ([6]; HRV-87): >166; TI [7]: >46; TI [8]: >50; TI [9]: >68; TI [10]: >94 |
| CC[C@@H](C(=O)N[C@H](/C=C/C(=O)OC1CCC1)C[C@@H]1CCNC1=O)n1cccc(NC(=O)c2cc(C)on2)c1=O [Compound 59, trans-(2′S,3′″″S,4S)-4-[2′-(3″-{[1′″-(5″″-Methylisoxazol-3″″-yl)methanoyl]amino}-2′″oxo-2′″H-pyridin-1′″-yl)butanoylamino]-5-(2′″″-oxopyrrolidin-3′″″-yl)pent-2-enoic Acid Cyclobutyl Ester] | >500 | – | – | – | – | >204 | >303 | >142 | >95 | >238 | >81 | >119 | >172 | >714 | >833 | >227 | >270 | >136 | >120 | >200 | TI [12]: >250; TI [13]: >250 |
| CC[C@@H](C(=O)N[C@H](/C=C/C(=O)OCc1ccccc1)C[C@@H]1CCNC1=O)n1cccc(NC(=O)c2cc(C)on2)c1=O [Compound 62, trans-(2′S,3′″″S,4S)-4-[2′-(3″-{[1′″-(5″″-Methylisoxazol-3″″-yl)methanoyl]amino}-2′″oxo-2′″H-pyridin-1′″-yl)butanoylamino]-5-(2′″″-oxopyrrolidin-3′″″-yl)pent-2-enoic Acid Benzyl Ester] | >163 | >33 | >666 | – | – | >222 | >192 | >76 | >188 | >555 | >232 | >588 | >192 | >1000 | >2500 | >476 | >312 | >175 | >192 | >625 | TI [12]: >500; TI [13]: >2500 |
| C#CC[C@@H](C(=O)N[C@H](/C=C/C(=O)OCc1ccccc1)C[C@@H]1CCNC1=O)n1cccc(NC(=O)c2cc(C)on2)c1=O [Compound 63, trans-(2′S,3′″″S,4S)-4-[2′-(3″-{[1′″-(5″″-Methylisoxazol-3″″-yl)methanoyl]amino}-2′″-oxo-2′″H-pyridin-1′″-yl)pent-4″-ynoylamino]-5-(2′″″-oxopyrrolidin-3′″″-yl)pent-2-enoic Acid Benzyl Ester] | >196 | >65 | >714 | – | – | >416 | >370 | >153 | >217 | >1428 | >285 | >833 | >217 | >588 | >222 | >714 | >270 | >294 | >25 | >833 | TI [12]: >1000; TI [13]: >5000 |
| CCOC(=O)c1ccc(OCCC2CCN(c3ccc(C)nn3)CC2)cc1 [Pirodavir, reference compound] | >300 | – | – | – | >167 | – | – | – | – | – | – | – | – | – | – | – | – | – | – | – | TI ([4]; ECHO-11 (EV-11)): ta >3 |
